A mixed list of measured activities; the numbers were collected in NIAID ChemDB.

All rows: growth or infection tests; agent: Mycobacterium bovis BCG

Rows are shuffled and stem from different studies. A number after MIC or MFC names an inhibition level or a share of isolates.

CC(C)(C)c1ccccc1OCCCON1C(N)=NC(N)=NC1(C)C ; read-out: MIC ; read by: fluorescence ; changes: Thymidylate synthase (thyA) overexpressing ; value: 3.6 µM
CCSCCCCCCCCCCCCC#CC(=O)O ; read-out: MIC ; strain: Pasteur ; value: 434.9 µM
NC(=O)NO ; read-out: MIC ; read by: visual reading ; value: 8.36 µg/mL
Fc1ccc(C2CCN(c3ccc(Nc4ncnc5ccccc45)cc3)CC2)cc1 ; read-out: MIC50 ; read by: luminescence ; value: >50 µM
CCc1cn(C2OC(CO)C(O)C2F)c(=O)[nH]c1=S ; read-out: MIC65 ; read by: resazurin ; value: 100 µg/mL
C[C@H]1COC2(CCN(c3nc(=O)c4cc(C(F)(F)F)cc([N+](=O)[O-])c4s3)CC2)O1 ; read-out: MIC ; read by: fluorescence ; value: 0.009 µM
CCc1cc(C(N)=S)ccn1 ; read-out: MIC ; strain: NCTC 5692 ethR::hyg ; value: 0.5 µg/mL
c1ccc(CCNc2ncnc3ccccc23)cc1 ; read-out: MIC50 ; read by: luminescence ; value: >10 µM
COc1ccc(/C(C)=N/NC(N)=S)cc1 ; read-out: MIC ; strain: NCTC 5692 ethR::hyg ; value: 0.25 µg/mL
O=C(C1CCN(c2nnc(-n3cccc3)s2)CC1)N1CCC(Cc2ccccc2)CC1 ; read-out: MIC ; strain: recG ; read by: fluorescence ; value: 1.6 µM
CCCCCCCCCCCCCCCC#CC(=O)OCCO ; read-out: MIC99 ; strain: mc22421 ; value: 1.9 µM
FC(F)(F)Oc1ccc(CCNc2ncnc3cc(Br)ccc23)cc1 ; read-out: MIC50 ; read by: luminescence ; value: >20 µM
CCc1cn(C2OC(CO)C(Br)C2F)c(=O)[nH]c1=O ; read-out: MIC70 ; read by: resazurin ; value: 50 µg/mL
CCc1n[nH]c(=S)n1N ; read-out: MIC ; read by: broth dilution / resazurin ; setting: 24 h ; value: 62.5 µg/mL
FC(F)(F)c1ccccc1CCNc1ncnc2ccsc12 ; read-out: MIC50 ; read by: luminescence ; value: >50 µM
CCCCCCSCCCCCCCCCCC#CC(=O)O ; read-out: MIC ; strain: Pasteur ; value: 9.6 µM
Clc1ccc(CCNc2ncnc3ccccc23)cc1 ; read-out: MIC50 ; read by: luminescence ; value: >10 µM
CCCCCCCCCCCCCC#CCC#CC(=O)O ; read-out: MIC ; strain: Pasteur ; value: 5.4 µM
Cc1ccc2nc(Nc3ncnc4ccccc34)sc2c1 ; read-out: MIC50 ; read by: luminescence ; value: >20 µM
CCCCCCCCCCCCCCCCCC#CC(=O)O ; read-out: MIC99 ; strain: mc22421 ; value: 10.1 µM
NNC(=O)c1ccncc1 ; read-out: MIC ; read by: fluorescence ; changes: DHFR-overexpressing ; value: 0.7 µM
FC(F)(F)c1ccc(CCNc2ncnc3sccc23)cc1 ; read-out: MIC50 ; read by: luminescence ; value: >20 µM
CCCCCCCCC#CCCCCCCC#CC(=O)O ; read-out: MIC99 ; strain: mc22421 ; value: 2.7 µM
CCc1cn2c(nc1=O)O[C@@H]1[C@H](F)[C@H]2O[C@@H]1CO ; read-out: MIC25 ; read by: resazurin ; value: 50 µg/mL
COc1ccc2nc(C)cc(Nc3ccc(Oc4ccc(C(F)(F)F)cc4)cc3)c2c1 ; read-out: MIC50 ; read by: luminescence ; value: 20 µM
CCc1nc2ccc(Cl)cn2c1C(=O)NCc1ccc(N2CCC(c3ccc(OC(F)(F)F)cc3)CC2)cc1 ; read-out: MIC50 ; read by: turbidity ; value: 0.0015 µM
CC(=O)Nc1ccc(/C=N/NC(N)=S)cc1 ; read-out: MIC ; strain: NCTC 5692 ethR::hyg ; value: 0.25 µg/mL
Fc1ccc2c(Nc3ccc(N4CCCN(c5ccc(C(F)(F)F)cc5)CC4)cc3)ncnc2c1 ; read-out: MIC50 ; read by: luminescence ; value: >20 µM
CCCCCCCCCCCCCCCC#CC(=O)OCC(O)CO ; read-out: MIC99 ; strain: mc22421 ; value: 1.8 µM
CC(C)(C)c1ccc(CCOc2ncnc3ccsc23)cc1 ; read-out: MIC50 ; read by: luminescence ; value: >50 µM
CCCCCCCCCCCCCCSCC#CC(=O)O ; read-out: MIC ; strain: Pasteur ; value: 0.5 µM

Repeating the first 2 entries:

CC(C)(C)c1ccccc1OCCCON1C(N)=NC(N)=NC1(C)C ; read-out: MIC ; read by: fluorescence ; changes: Thymidylate synthase (thyA) overexpressing ; value: 3.6 µM
CCSCCCCCCCCCCCCC#CC(=O)O ; read-out: MIC ; strain: Pasteur ; value: 434.9 µM